The source of these data is patent publication US10071110B2, “Phosphonate compounds” (priority 1999, dated 2018).

This assay relates to HIV-1. The conditions noted are these: read-out: EC50, in HIV-1 plaque reduction assay; preliminary; HIV-1LA1 infected HT4-6C cells, 3 days (Table 5). Background: In a plaque reduction assay, fewer plaques than in the control indicate reduced infectivity or spread.

Turning to hexadecyloxypropyl-adefovir [HDP-ADV], the EC50 – broadly, the concentration at which the effect is half-maximal – was 0.1 nM.
